Measured values from article PMC11856660 (2025).

Assays:
[1] = target: HCoV-229E nsp15 protein, G248V mutant (recombinant, hexameric) (human coronavirus 229E (HCoV-229E)); assay: dynamic light scattering
[2] = target: HCoV-229E nsp15 protein, H250Y mutant (recombinant, hexameric) (human coronavirus 229E (HCoV-229E)); assay: dynamic light scattering

Substance	percent hexameric [1] [%]	stoichiometry N [1]	percent hexameric [2] [%]	stoichiometry N [2]
HCoV-229E nsp15 protein, G248V mutant (recombinant, hexameric) (enzyme)	> 98	6	–	–
HCoV-229E nsp15 protein, H250Y mutant (recombinant, hexameric) (enzyme)	–	–	> 98	6
